Results deposited as PubChem BioAssay AID624099 (ICCB-Longwood, 2012).

Test: 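Knock-downs relieving repression by E2 of an HPV18 LCR luciferase reporter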 (primary screen)
Cell system: human C33A cervical carcinoma cells (HPV-negative) stably expressing BPV1 E2 and an HPV18 LCR luciferase reporter
Knock-down reagent: siRNA pool against human genes, 40 nM
Duration: 72 h
Measured: 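Per-well luciferase luminescence, z-scored on each plate against the plate mean and SD with control wells left out, then averaged across three replicate plates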
Reading the numbers: mean z-score and z-score: higher = stronger reporter signal, weaker E2 silencing
Rule for the call: 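Mean z ≥ 2 together with z ≥ 2 in two or more of the three replicates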
The deposit covers about 21,000 reagents; shown is an unselected part. In the full data, 497 (2.4%) got an active call. 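Higher z means weaker E2 silencing; only reporter increases were scored, and knock-downs that hurt cell survival may mask genuine repressor factors.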 The numbers tell different reagents against one gene apart. Reagent sequences are not shown.

Gene | reagent | mean z-score | z-score, replicate A | z-score, replicate B | z-score, replicate C | call
ZNF80 (zinc finger protein 80) | 1 | 1.15 | 1.27 | 1.21 | 0.98 | inactive
LOC401740 (retired record) | 1 | 1.05 | 0.79 | 1.59 | 0.79 | inactive
MEMO1 (mediator of cell motility 1) | 1 | 1.31 | 1.21 | 1.52 | 1.21 | inactive
THUMPD1 (THUMP domain 1 NAT10 acetyltransferase adaptor) | 1 | 0.5 | 0.43 | 0.63 | 0.45 | inactive
HSF1 (heat shock transcription factor 1) | 1 | -0.83 | -0.79 | -0.6 | -1.09 | inactive
SKA1 (spindle and kinetochore associated complex subunit 1) | 1 | -0.56 | -0.68 | -0.23 | -0.77 | inactive
OGDHL (oxoglutarate dehydrogenase L) | 1 | -0.95 | -0.66 | -1.01 | -1.18 | inactive
OTC (ornithine transcarbamylase) | 1 | -0.78 | -0.69 | -0.74 | -0.91 | inactive
LINC01101 (long independently transcribed non-coding RNA 1101) | 1 | 1.26 | 1.13 | 1.17 | 1.5 | inactive
FHIP1B (FHF complex subunit HOOK interacting protein 1B) | 1 | -0.16 | -0.39 | 0.07 | -0.17 | inactive
OBI1 (ORC ubiquitin ligase 1) | 1 | -0.2 | -0.45 | -0.42 | 0.26 | inactive
TTC39A (tetratricopeptide repeat domain 39A) | 1 | 1.29 | 1.24 | 1.64 | 0.99 | inactive
LRRC10B (leucine rich repeat containing 10B) | 1 | -2.03 | -2.22 | -1.59 | -2.28 | inactive
CENPC (centromere protein C) | 1 | -0.63 | -0.61 | -0.65 | -0.64 | inactive
LOC392152 (retired record) | 1 | 0.69 | 0.34 | 0.82 | 0.91 | inactive
ZNF503-AS2 (ZNF503 antisense RNA 2) | 1 | 0.9 | 0.72 | 0.36 | 1.61 | inactive
LRRFIP1 (LRR binding FLII interacting protein 1) | 1 | 0.89 | 1.02 | 0.84 | 0.82 | inactive
CFAP58 (cilia and flagella associated protein 58) | 1 | 0.76 | 0.89 | 0.6 | 0.8 | inactive
ARHGEF26 (Rho guanine nucleotide exchange factor 26) | 1 | -0.82 | -0.73 | -0.95 | -0.76 | inactive
GBP2 (guanylate binding protein 2) | 1 | 0.71 | 0.95 | 0.63 | 0.55 | inactive
CHAT (choline O-acetyltransferase) | 1 | -1.24 | -1.17 | -1.12 | -1.43 | inactive
LINC00597 (long independently transcribed non-coding RNA 597) | 1 | -0.04 | -0.13 | -0.05 | 0.06 | inactive
PEX5 (peroxisomal biogenesis factor 5) | 1 | 0.35 | 0.4 | 0.21 | 0.43 | inactive
PLCD1 (phospholipase C delta 1) | 1 | 0.88 | 0.95 | 0.65 | 1.05 | inactive
ZMYM6 (zinc finger MYM-type containing 6) | 1 | 0.12 | 0.27 | 0.11 | -0.02 | inactive
ZMYM6 (zinc finger MYM-type containing 6) | 2 | -2.36 | -2.63 | -2.48 | -1.97 | inactive
PRR5L (proline rich 5 like) | 1 | -0.15 | 0.28 | 0.07 | -0.8 | inactive
H2BC7 (H2B clustered histone 7) | 1 | -1.12 | -1.16 | -1 | -1.21 | inactive
PDCD1 (programmed cell death 1) | 1 | -0.31 | -0.44 | -0.46 | -0.02 | inactive
IPO11 (importin 11) | 1 | 2.19 | 2.55 | 2.13 | 1.88 | active
LHX3 (LIM homeobox 3) | 1 | -1.3 | -1.15 | -1.05 | -1.68 | inactive
CCDC57 (coiled-coil domain containing 57) | 1 | 0.18 | 0.15 | 0.45 | -0.06 | inactive
CCDC57 (coiled-coil domain containing 57) | 2 | 0.15 | – | 0.27 | 0.03 | inactive
BABAM1 (BRISC and BRCA1 A complex member 1) | 1 | -0.03 | -0.43 | -0.01 | 0.36 | inactive
BANF1 (barrier to autointegration nuclear assembly factor 1) | 1 | 0.54 | 0.67 | 0.53 | 0.4 | inactive
TYMS (thymidylate synthetase) | 1 | -0.51 | -0.11 | -0.83 | -0.58 | inactive
STBD1 (starch binding domain 1) | 1 | -1.32 | -1.16 | -1.39 | -1.41 | inactive
SRI (sorcin) | 1 | -0.46 | -0.18 | -0.54 | -0.66 | inactive
LOC138972 (retired record) | 1 | -1.29 | -0.98 | -1.5 | -1.39 | inactive
RCE1 (Ras converting CAAX endopeptidase 1) | 1 | -0.75 | -0.18 | -0.71 | -1.36 | inactive
SLC2A9 | 1 | -1.3 | -1.23 | -1.42 | -1.25 | inactive
FLJ42258 (retired record) | 1 | 0.2 | 0.11 | 0.47 | 0.03 | inactive
PIK3AP1 (phosphoinositide-3-kinase adaptor protein 1) | 1 | -0.38 | -0.46 | -0.4 | -0.28 | inactive
EIF6 (eukaryotic translation initiation factor 6) | 1 | 0.94 | 0.87 | 0.68 | 1.25 | inactive
EIF6 (eukaryotic translation initiation factor 6) | 2 | -0.25 | -0.27 | -0.14 | -0.34 | inactive
LRRC47 (leucine rich repeat containing 47) | 1 | -0.69 | -0.98 | -0.79 | -0.29 | inactive
SERINC1 (serine incorporator 1) | 1 | -0.49 | -0.78 | -0.18 | -0.5 | inactive
CFAP299 (cilia and flagella associated protein 299) | 1 | 1.24 | 1.18 | 1.56 | 1 | inactive
MINAR1 (membrane integral NOTCH2 associated receptor 1) | 1 | -0.39 | -0.5 | -0.39 | -0.27 | inactive
TRAF3IP3 (TRAF3 interacting protein 3) | 1 | 0.11 | -0.31 | 0 | 0.63 | inactive
ANLN (anillin, actin binding protein) | 1 | -0.06 | 0.03 | 0.05 | -0.26 | inactive
TBL2 (transducin beta like 2) | 1 | 1.21 | 1.46 | 1.18 | 0.99 | inactive
TRIM38 (tripartite motif containing 38) | 1 | 0.43 | 0.52 | 0.44 | 0.32 | inactive
CRISPLD2 (cysteine rich secretory protein LCCL domain containing 2) | 1 | -0.22 | -0.37 | -0.3 | 0.01 | inactive
GORAB (golgin, RAB6 interacting) | 1 | -1.27 | -1.18 | -1.58 | -1.06 | inactive
DUX4L8 (double homeobox 4 like 8 (pseudogene)) | 1 | 0.8 | 0.93 | – | 0.67 | inactive
TRIM46 (tripartite motif containing 46) | 1 | -0.31 | -0.37 | -0.56 | 0.01 | inactive
SLC5A9 | 1 | -0.75 | -0.65 | -0.81 | -0.8 | inactive
JAKMIP1-DT (JAKMIP1 divergent transcript) | 1 | -0.39 | -0.36 | -0.46 | -0.37 | inactive
LAMA2 (laminin subunit alpha 2) | 1 | 1 | 1.06 | 1.22 | 0.73 | inactive
OR2W5 | 1 | -0.29 | -0.24 | -0.26 | -0.37 | inactive
MT-ND1 (mitochondrially encoded NADH dehydrogenase 1) | 1 | 0 | 0.23 | -0.33 | 0.09 | inactive
LOC388526 (retired record) | 1 | 1.7 | 1.85 | 1.75 | 1.49 | inactive
HSH2D (hematopoietic SH2 domain containing) | 1 | 0.72 | 0.32 | 0.57 | 1.28 | inactive
SMIM19 (small integral membrane protein 19) | 1 | -0.74 | -0.93 | -0.72 | -0.57 | inactive
GTF2H3 (general transcription factor IIH subunit 3) | 1 | -0.63 | -0.72 | -0.55 | -0.63 | inactive
LRP1B (LDL receptor related protein 1B) | 1 | -0.66 | -0.8 | -0.52 | -0.66 | inactive
B3GNT2 | 1 | -0.09 | 0.15 | -0.43 | 0 | inactive
LDC1P (leucine decarboxylase 1, pseudogene) | 1 | 1.26 | 0.81 | 1.08 | 1.9 | inactive
PPFIA3 (PPFI scaffold protein A3) | 1 | -0.39 | -0.21 | -0.48 | -0.47 | inactive
FMN2 (formin 2) | 1 | -0.26 | -0.65 | -0.15 | 0 | inactive
ITGB1 (integrin subunit beta 1) | 1 | -0.04 | 0 | -0.11 | -0.01 | inactive
RNF187 (ring finger protein 187) | 1 | 1.33 | 1.79 | 1.17 | 1.02 | inactive

As entered above:
JAKMIP1-DT (JAKMIP1 divergent transcript), call: inactive
Result of TYMS (thymidylate synthetase) in “call”: inactive
LOC392152 (retired record), call = inactive
LRRC10B (leucine rich repeat containing 10B), z-score, replicate A: -2.22
